# System: Staphylococcus aureus strain SAU1018
# Assay: Mouse peritonitis infection model
substance,measurement,setting,value
contezolid acefosamil [Product form 3],ED50,"administered orally, Staphylococcus aureus",about 8 mg/kg
same,ED50 (effective dose for 50% animal survival),"intravenous injection of saline solution, S. aureus SAU1018",10 mg/kg
